From ChEMBL document CHEMBL1671674, “Induction of multidrug resistance mechanism in Escherichia coli biofilms by interplay between tetracycline and ampicillin resistance genes” (2009)

Tested on: Escherichia coli
Conditions: K-12 substr. MG1655

Question: With GENTAMICIN as the sequence, how does the MIC read?
Answer: Its MIC is 0.5 µg/mL.
